Measured values from several laboratories, pooled; numbers as filed in NIAID ChemDB.

All rows: tests in culture; agent: Hepatitis B virus; read by: PCR; read-out: EC50

Conditions beyond the fields shown may differ between rows.

compound,cells,result
Cn1nc2cc(NS(=O)(=O)c3cnn(CC4CN(C(=O)OC(C)(C)C)C4)c3)ccc2c1C(=O)Nc1ccc(F)c(Cl)c1,HepAD38,100–1000 µM
CCNC(=O)C(=O)N1CCC(NS(=O)(=O)c2cn(C)c(C(=O)Nc3ccc(F)c(Cl)c3F)c2F)CC1,HepAD38 cells,<0.1 µM
Cn1nc2cc(NS(=O)(=O)c3cnn(-c4ncccc4N)c3)ccc2c1C(=O)Nc1ccc(F)c(Cl)c1,HepAD38,<100 µM
COCC1(N(C)C(=O)c2c3n(c(=O)n2-c2ccc(OC)cc2)CCN(C(=O)c2ccc(Cl)c(Cl)c2)C3)CC1,HepG2.117,>5 µM
Cn1nc2cc(NS(=O)(=O)c3cnn(-c4ncccc4F)c3)ccc2c1C(=O)Nc1ccc(F)c(Cl)c1,HepAD38,<100 µM
COc1ccc(-n2c(C(=O)NCc3ccccc3)c3n(c2=O)CCN(C(=O)c2ccc(Cl)c(Cl)c2)C3)c(Cl)c1,HepG2.117,0.5–5 µM
C#C[C@@](C)(NC(=O)C(=O)c1c(C)c(C(=O)Nc2ccc(F)c(C#N)c2)n(C)c1C)C(F)(F)F,HepG2.2.15,0.001–0.0099 µM
C[C@@H](c1ccccc1)N1C[C@@H](O)Cn2c(c3n(c2=O)CCN(C(=O)c2ccc(Br)c(Cl)c2)C3)C1=O,HepG2.117,0.5–5 µM
C[C@@H](NS(=O)(=O)Nc1ccc2c(C(=O)Nc3ccc(F)c(Cl)c3)n(C)nc2c1)c1ccccc1,HepAD38,100–1000 µM
CNC(=O)C(=O)N1C[C@@H]2C(NS(=O)(=O)c3cn(C)c(C(=O)Nc4cc(F)c(F)c(F)c4)c3F)[C@@H]2C1,HepAD38 cells,<0.1 µM
COc1ccc(-n2c(C(=O)NCc3ccccc3)c3n(c2=O)C[C@H](C2CC2)N(C(=O)c2ccc(Br)c(Cl)c2)C3)cc1,HepG2.117,0.1–0.5 µM
Cn1nc2cc(NS(=O)(=O)NCc3ccccc3)ccc2c1C(=O)Nc1ccc(F)c(Cl)c1,HepAD38,<100 µM
Cc1c(C(=O)C(=O)NC(C)(C)c2cncnc2)c(C)n(C)c1C(=O)Nc1ccc(F)c(C#N)c1,HepG2.2.15,0.001–0.0099 µM
CC(C)Oc1ccc(-n2c(C(=O)N[C@@H](C)c3ccc(C#N)cc3)c3n(c2=O)CCN(C(=O)c2ccc(Br)c(Cl)c2)C3)cc1,HepG2.117,0.1–0.5 µM
Cn1nc2cc(NS(=O)(=O)NC3CN(c4ccccc4)C3)ccc2c1C(=O)Nc1ccc(F)c(Cl)c1,HepAD38,100–1000 µM
CCNC(=O)C(=O)N1CCC(NS(=O)(=O)c2cn(CC(F)F)c(C(=O)Nc3ccc(F)c(F)c3)c2F)CC1,HepAD38 cells,<0.1 µM
COc1ccc(-n2c(C(=O)NCc3cccc(C#N)c3)c3n(c2=O)CCN(C(=O)c2ccc(Br)c(Cl)c2)C3)cc1,HepG2.117,0.5–5 µM
C=C[C@@](CO)(NC(=O)C(=O)c1c(C)c(C(=O)Nc2ccc(F)c(C#N)c2)n(C)c1C)C(F)(F)F,HepG2.2.15,0.001–0.0099 µM
CCOC(=O)Nc1ccc2nn(C)c(C(=O)Nc3ccc(F)c(Cl)c3)c2c1,HepAD38,>1000 µM
CCNC(=O)C(=O)N1CCC(NS(=O)(=O)c2cn(C)c(C(=O)Nc3cc(F)c(F)c(F)c3)c2F)CC12CC2,HepAD38 cells,<0.1 µM
C#C[C@@H](NC(=O)C(=O)c1c(C)c(C(=O)Nc2ccc(F)c(C#N)c2)n(C)c1C)OC,HepG2.2.15,0.001–0.0099 µM

2 of the rows above, restated:

compound	cells	result
CCOC(=O)Nc1ccc2nn(C)c(C(=O)Nc3ccc(F)c(Cl)c3)c2c1	HepAD38	>1000 µM
Cc1c(C(=O)C(=O)NC(C)(C)c2cncnc2)c(C)n(C)c1C(=O)Nc1ccc(F)c(C#N)c1	HepG2.2.15	0.001–0.0099 µM

a–b is a range or a potency band. ECn: concentration that inhibits the pathogen or its effect by n%.